Results of unrelated studies side by side (data: NIAID ChemDB).

Shared fields: target-level tests; species: HIV-1; protein: Reverse transcriptase; endpoint: IC50

ICn is the concentration giving n% inhibition. a–b is a range or a potency band. Lines come from different laboratories, so protocols vary. Blank or dashed fields: not listed here.

compound,strain,changes,method,value
CCNc1cccnc1N1CCN(C(=O)c2cc3c(C)c(OC)c(C)c(C)c3[nH]2)CC1,-,-,nucleotide incorporation,<100 µM
Cn1cnc(CCNC(=O)c2[nH]c3ccc(Cl)cc3c2S(=O)(=O)c2ccccc2)c1,-,-,nucleotide incorporation,0.003–0.035 µM
O=C(c1cc2ccccc2[nH]1)N1CCN(c2ncccc2NC2CCCC2)CC1,-,-,nucleotide incorporation,<100 µM
CCN1c2ncc(CCc3cccc(I)c3)cc2C(=O)N(C)c2ccc(Cl)nc21,WT,-,nucleotide incorporation / radiometric,<1 µM
CCN1c2ncc(CCOc3ccc(NC(=O)CC(C)(C)C(=O)O)c4ccccc34)cc2C(=O)N(C)c2cccnc21,-,RT-K103N Y181C,nucleotide incorporation / radiometric,0.1–1 µM
O=C(NCCc1ccccc1)Nc1nc(-c2ccc(Cl)cc2)cs1,-,-,nucleotide incorporation,>10 µg/mL
C=C(C)C1CC[C@]2(C(=O)O)CC[C@]3(C)C(CCC4[C@@]5(C)C[C@@H](C(=O)[O-])[C@H](O)C(C)(C)C5CC[C@]43C)C12,-,-,RT activity,116.9 µg/mL
Cc1cc(C)cc(S(=O)(=O)c2c(C(N)=O)[nH]c3ccc(Cl)cc23)c1,-,RT-K103N,nucleotide incorporation / radiometric,0.003 µM
CC(C)Nc1cccnc1N1CCN(C(=O)c2cccc3cc[nH]c23)CC1,-,-,nucleotide incorporation,<100 µM
CCN1c2ncc(CCOc3ccc(-c4nc(C(=O)O)cs4)cc3)cc2C(=O)N(C)c2cccnc21,IIIB,-,nucleotide incorporation / radiometric,<0.05 µM
NC(=O)[C@@H](Nc1ccccc1[N+](=O)[O-])c1c(Cl)cccc1Cl,-,-,-,0.4 µM
Cn1c(-c2ccc(F)cc2)cs/c1=N\N=C1\C(=O)Nc2ccccc21,-,-,RT activity / nucleotide incorporation / fluorescence,30 µM
CCN1c2ncc(CCOc3ccc4cc(CC(=O)O)ccc4c3C)cc2C(=O)N(C)c2cccnc21,-,RT-V106A,nucleotide incorporation / radiometric,0.1–1 µM
NC(=O)c1[nH]c2ccc(Cl)cc2c1S(=O)(=O)c1ccccc1,-,RT-Y181I,nucleotide incorporation / radiometric,0.14 µM
CCN1c2ncc(CCOc3ccc(C(=O)O)c4ccccc34)cc2C(=O)Nc2c(C)cc(F)nc21,-,RT-K103N Y181C,nucleotide incorporation / radiometric,0.1–1 µM
CC(=O)c1ccc(C)cc1N[C@H](C(N)=O)c1c(Cl)cccc1Cl,-,-,-,0.2 µM
COc1ccc(C2=CC(c3cnc(C(C)C)cn3)SC(N)=N2)cc1,-,-,RT activity / ELISA / absorbance,>100 µM
CC(=O)N(C)C1CCN(CCn2c(=O)nc(-c3ccccc3)c3oc4ccc(Br)cc4c32)C1,-,-,PicoGreen / fluorescence,5 µM
C=C(C)OC(=O)N1c2cc(Cl)ccc2NC(=S)C1(C)C,LAI,-,radiometric,0.1 µM
COC(=O)C(=O)c1csc(NC(=O)NCCc2ccccc2)n1,-,-,nucleotide incorporation,>10 µg/mL
CC(C)Nc1cccnc1N(C)CCCN(C)C(=O)c1cc2ccccc2[nH]1,-,-,nucleotide incorporation,<100 µM
Cn1c(-c2ccc(Cl)cc2)cs/c1=N\N=C1\C(=O)Nc2ccc(Cl)cc21,-,-,RT activity / nucleotide incorporation / fluorescence,39 µM
O=C(NCCc1ccccc1)NCc1ccoc1,-,-,nucleotide incorporation,>10 µg/mL
Nc1cccc(CNC(=O)c2[nH]c3ccc(Cl)cc3c2S(=O)(=O)c2ccccc2)c1,-,-,nucleotide incorporation,0.003–0.035 µM
Cn1c(-c2ccc(C#N)cc2)cs/c1=N\N=C1\C(=O)Nc2ccccc21,-,-,RT activity / nucleotide incorporation / fluorescence,27 µM
CNc1cccnc1N1CCN(C(=O)c2cc3cc(OC)ccc3[nH]2)CC1,-,-,nucleotide incorporation,<100 µM
O=C(NC1CC1)c1[nH]c2ccc(Cl)cc2c1S(=O)(=O)c1ccccc1,-,-,nucleotide incorporation,0.003–0.035 µM
CCN1c2ncc(CCOc3ccc(C(=O)O)c4c3CCCC4)cc2C(=O)N(C)c2ccc(Cl)nc21,-,RT-Y188L,nucleotide incorporation / radiometric,0.1–1 µM
CCOc1ccc2nc(NC(=O)NCCc3ccccc3)sc2c1,-,-,nucleotide incorporation,>10 µg/mL
CC(C)Nc1cccnc1N(C)CCN(C)C(=O)c1cc2cc(F)ccc2[nH]1,-,-,nucleotide incorporation,<100 µM
Cn1c(-c2ccc(Br)cc2)cs/c1=N\N=C1\C(=O)Nc2ccc(Cl)cc21,-,-,RT activity / nucleotide incorporation / fluorescence,34 µM
Cc1cccc(C2=CC(c3cnc(C(C)C)cn3)SC(N)=N2)c1,-,-,RT activity / ELISA / absorbance,>100 µM
CCN1c2ncc(CCOc3ccc(-c4ccc(CC(=O)O)c(C)c4)cc3C)cc2C(=O)N(C)c2cccnc21,IIIB,RT-K103N Y181C,nucleotide incorporation / radiometric,<0.05 µM
CC(C)c1cnc(C2C=C(c3ccc(F)cc3)N=C(N)S2)cn1,-,-,RT activity / ELISA / absorbance,15.32 µM
C=C(C)C1CC[C@]2(C(=O)O)CC[C@]3(C)C(CCC4[C@@]5(C)C[C@@H](O)[C@H](C(=O)[O-])C(C)(C)C5CC[C@]43C)C12,-,-,RT activity,16.3 µg/mL
CCN1c2ncc(CCOc3ccc(-c4cc(C)nc(C)c4)cc3C)cc2C(=O)N(C)c2cccnc21,IIIB,-,nucleotide incorporation / radiometric,<0.05 µM
O=C(NCCc1ccccc1)Nc1nc2ccc(Cl)cc2s1,-,-,nucleotide incorporation,>10 µg/mL
Cn1c(-c2ccc(Cl)c(Cl)c2)cs/c1=N\N=C1\C(=O)Nc2ccccc21,-,-,RT activity / nucleotide incorporation / fluorescence,50 µM
O=C(NCc1cc[nH]c(=O)c1)c1[nH]c2ccc(Cl)cc2c1S(=O)(=O)c1ccccc1,-,-,nucleotide incorporation,0.003–0.035 µM
CCN1c2ncc(CCc3cccc(O)c3)cc2C(=O)N(C)c2cccnc21,-,RT-Y181C,nucleotide incorporation / radiometric,<1 µM
CCc1cc(NCc2nc3c(C)ccc(C)c3o2)c(=O)[nH]c1C,-,RT-Y181W,nucleotide incorporation,0.2961 µM
CCN1c2ncc(CCc3ccncc3)cc2C(=O)N(C)c2ccc(CCc3ccncc3)nc21,WT,-,nucleotide incorporation / radiometric,<1 µM
CC(C)Nc1cccnc1N1CCN(C(=O)c2cccc3c2NCC3)CC1,-,-,nucleotide incorporation,<100 µM
COc1ccccc1C1=CC(c2cnc(C(C)C)cn2)SC(N)=N1,-,-,RT activity / ELISA / absorbance,>100 µM
CCNc1cccnc1N(C)CCCN(C)C(=O)c1cc2ccccc2[nH]1,-,-,nucleotide incorporation,<100 µM
CCN1c2ncc(CCOc3ccc(C(=O)N(C)Cc4ccc(C(=O)O)cc4)cc3C)cc2C(=O)N(C)c2cccnc21,IIIB,RT-K103N Y181C,nucleotide incorporation / radiometric,0.05–0.1 µM
CCN1c2ncc(CCc3ccc4cc[nH]c4c3)cc2C(=O)N(C)c2cccnc21,-,RT-Y181C,nucleotide incorporation / radiometric,<1 µM
CC(C)Nc1cc(F)ccc1N1CCN(C(=O)c2cc3ccccc3[nH]2)CC1,-,-,nucleotide incorporation,<100 µM

For reference, 3 entries again:

compound,strain,changes,method,value
CC(C)Nc1cccnc1N(C)CCCN(C)C(=O)c1cc2ccccc2[nH]1,-,-,nucleotide incorporation,<100 µM
Cn1c(-c2ccc(F)cc2)cs/c1=N\N=C1\C(=O)Nc2ccccc21,-,-,RT activity / nucleotide incorporation / fluorescence,30 µM
Cc1cc(C)cc(S(=O)(=O)c2c(C(N)=O)[nH]c3ccc(Cl)cc23)c1,-,RT-K103N,nucleotide incorporation / radiometric,0.003 µM